From patent US10975126B1 (priority 2020, dated 2021)

Tested on: MERS-CoV
Test: Plaque reduction assay
Type: cell-based, MERS-CoV (CoV/KOR/KNIH/002_05_2015) in Vero cells
Settings: 10 μM peptide mixed with MERS-CoV for 30 min; Vero cells; counted four days after infection

Structure (SMILES)	# Plaques
CC[C@H](C)[C@H](NC(=O)[C@H](Cc1ccc(O)cc1)NC(=O)[C@H](CO)NC(=O)[C@H](CCC(=O)O)NC(=O)[C@H](CC(N)=O)NC(=O)[C@H](CC(C)C)NC(=O)[C@H](C)NC(=O)[C@H](CCCCN)NC(=O)[C@@H](NC(=O)[C@@H](NC(=O)[C@H](CCC(N)=O)NC(=O)[C@H](CCC(N)=O)NC(=O)[C@H](CC(C)C)NC(=O)[C@H](CO)NC(=O)[C@H](CC(C)C)NC(=O)[C@H](CCSC)NC(=O)[C@H](CCC(=O)O)NC(=O)[C@H](Cc1ccc(O)cc1)NC(=O)[C@H](CCC(=O)O)NC(=O)[C@H](CC(C)C)NC(=O)[C@H](CC(=O)O)NC(=O)[C@H](CC(C)C)NC(=O)[C@H](CC(C)C)NC(=O)[C@@H](NC(=O)[C@@H](NC(=O)[C@H](CC(N)=O)NC(=O)[C@@H](NC(=O)[C@H](CCC(N)=O)NC(=O)[C@@H](NC(=O)[C@H](CC(C)C)NC(=O)[C@@H](N)CO)[C@@H](C)O)[C@@H](C)CC)[C@@H](C)O)[C@@H](C)O)C(C)C)C(C)C)C(=O)N[C@@H](CC(=O)O)C(=O)N[C@@H](CC(C)C)C(=O)N[C@@H](CCCCN)C(=O)N[C@@H](CCC(=O)O)C(=O)N[C@@H](CC(C)C)C(=O)O	92
CC[C@H](C)[C@H](NC(=O)[C@H](Cc1ccc(O)cc1)NC(=O)[C@H](Cc1ccc(O)cc1)NC(=O)[C@H](CCC(=O)O)NC(=O)[C@H](CC(N)=O)NC(=O)[C@H](CC(C)C)NC(=O)[C@H](C)NC(=O)[C@H](CCCCN)NC(=O)[C@H](CCSC)NC(=O)[C@@H](NC(=O)[C@H](CCC(N)=O)NC(=O)[C@H](CCC(N)=O)NC(=O)[C@H](CC(C)C)NC(=O)[C@H](CO)NC(=O)[C@H](CCC(=O)O)NC(=O)[C@H](CCSC)NC(=O)[C@H](CCC(=O)O)NC(=O)[C@H](Cc1ccc(O)cc1)NC(=O)[C@@H](NC(=O)[C@H](CC(C)C)NC(=O)[C@H](CC(=O)O)NC(=O)[C@H](CC(C)C)NC(=O)[C@H](CC(C)C)NC(=O)[C@@H](NC(=O)[C@H](Cc1c[nH]c2ccccc12)NC(=O)[C@H](CC(N)=O)NC(=O)[C@@H](NC(=O)[C@H](CCC(N)=O)NC(=O)[C@@H](NC(=O)[C@H](CC(C)C)NC(=O)[C@@H](N)CO)[C@@H](C)O)[C@@H](C)CC)[C@@H](C)O)[C@@H](C)O)C(C)C)C(=O)N[C@@H](CC(=O)O)C(=O)N[C@@H](CC(C)C)C(=O)N[C@@H](CCCCN)C(=O)N[C@@H](Cc1c[nH]cn1)C(=O)N[C@@H](CC(C)C)C(=O)O	55
CC[C@H](C)[C@H](NC(=O)[C@H](Cc1ccc(O)cc1)NC(=O)[C@H](Cc1ccc(O)cc1)NC(=O)[C@H](CCC(=O)O)NC(=O)[C@H](CC(N)=O)NC(=O)[C@H](CC(C)C)NC(=O)[C@H](C)NC(=O)[C@H](CCCCN)NC(=O)[C@@H](NC(=O)[C@@H](NC(=O)[C@H](CCC(N)=O)NC(=O)[C@H](CCC(N)=O)NC(=O)[C@H](CC(C)C)NC(=O)[C@H](CO)NC(=O)[C@H](CCC(=O)O)NC(=O)[C@H](CCSC)NC(=O)[C@H](CCC(=O)O)NC(=O)[C@H](Cc1ccc(O)cc1)NC(=O)[C@@H](NC(=O)[C@H](CC(C)C)NC(=O)[C@H](CC(=O)O)NC(=O)[C@H](CC(C)C)NC(=O)[C@H](CC(C)C)NC(=O)[C@@H](NC(=O)[C@H](Cc1c[nH]c2ccccc12)NC(=O)[C@H](CC(N)=O)NC(=O)[C@@H](NC(=O)[C@H](CCC(N)=O)NC(=O)[C@@H](NC(=O)[C@H](CC(C)C)NC(=O)[C@@H](N)CO)[C@@H](C)O)[C@@H](C)CC)[C@@H](C)O)[C@@H](C)O)C(C)C)C(C)C)C(=O)N[C@@H](CC(=O)O)C(=O)N[C@@H](CC(C)C)C(=O)N[C@@H](CCCCN)C(=O)N[C@@H](CCC(=O)O)C(=O)N[C@@H](CC(C)C)C(=O)O [Peptide 5]	31
CC[C@H](C)[C@H](NC(=O)[C@H](Cc1ccc(O)cc1)NC(=O)[C@H](CO)NC(=O)[C@H](CCC(=O)O)NC(=O)[C@H](CC(N)=O)NC(=O)[C@H](CC(C)C)NC(=O)[C@H](CCCCN)NC(=O)[C@H](CCCCN)NC(=O)[C@@H](NC(=O)[C@@H](NC(=O)[C@H](CCC(=O)O)NC(=O)[C@H](CCC(=O)O)NC(=O)[C@H](CC(C)C)NC(=O)[C@H](CO)NC(=O)[C@H](CCCNC(=N)N)NC(=O)[C@H](CCSC)NC(=O)[C@H](CCC(=O)O)NC(=O)[C@H](Cc1ccc(O)cc1)NC(=O)[C@H](CCC(=O)O)NC(=O)[C@H](CC(C)C)NC(=O)[C@H](CC(=O)O)NC(=O)[C@H](CC(C)C)NC(=O)[C@H](CC(C)C)NC(=O)[C@@H](NC(=O)[C@@H](NC(=O)[C@H](CC(N)=O)NC(=O)[C@@H](NC(=O)[C@H](CCC(N)=O)NC(=O)[C@@H](NC(=O)[C@H](CC(C)C)NC(=O)[C@@H](N)CO)[C@@H](C)O)[C@@H](C)CC)[C@@H](C)O)[C@@H](C)O)C(C)C)C(C)C)C(=O)N[C@@H](CC(=O)O)C(=O)N[C@@H](CC(C)C)C(=O)N[C@@H](CCCCN)C(=O)N[C@@H](CCC(=O)O)C(=O)N[C@@H](CC(C)C)C(=O)O	46
CC[C@H](C)[C@H](NC(=O)[C@H](Cc1ccc(O)cc1)NC(=O)[C@H](CO)NC(=O)[C@H](CCC(=O)O)NC(=O)[C@H](CC(N)=O)NC(=O)[C@H](CC(C)C)NC(=O)[C@H](C)NC(=O)[C@H](CCCCN)NC(=O)[C@@H](NC(=O)[C@@H](NC(=O)[C@H](CCC(=O)O)NC(=O)[C@H](CCC(=O)O)NC(=O)[C@H](CC(C)C)NC(=O)[C@H](CO)NC(=O)[C@H](CCCNC(=N)N)NC(=O)[C@H](CCSC)NC(=O)[C@H](CCC(=O)O)NC(=O)[C@H](Cc1ccc(O)cc1)NC(=O)[C@H](CCC(=O)O)NC(=O)[C@H](CC(C)C)NC(=O)[C@H](CC(=O)O)NC(=O)[C@H](CC(C)C)NC(=O)[C@H](CC(C)C)NC(=O)[C@@H](NC(=O)[C@@H](NC(=O)[C@H](CC(N)=O)NC(=O)[C@@H](NC(=O)[C@H](CCC(N)=O)NC(=O)[C@@H](NC(=O)[C@H](CC(C)C)NC(=O)[C@@H](N)CO)[C@@H](C)O)[C@@H](C)CC)[C@@H](C)O)[C@@H](C)O)C(C)C)C(C)C)C(=O)N[C@@H](CC(=O)O)C(=O)N[C@@H](CC(C)C)C(=O)N[C@@H](CCCCN)C(=O)N[C@@H](CCC(=O)O)C(=O)N[C@@H](CC(C)C)C(=O)O	59
CC[C@H](C)[C@H](NC(=O)[C@H](Cc1ccc(O)cc1)NC(=O)[C@H](CO)NC(=O)[C@H](CCC(=O)O)NC(=O)[C@H](CC(N)=O)NC(=O)[C@H](CC(C)C)NC(=O)[C@H](C)NC(=O)[C@H](CCCCN)NC(=O)[C@@H](NC(=O)[C@@H](NC(=O)[C@H](CCC(N)=O)NC(=O)[C@H](CCC(N)=O)NC(=O)[C@H](CC(C)C)NC(=O)[C@H](CO)NC(=O)[C@H](CCCNC(=N)N)NC(=O)[C@H](CCSC)NC(=O)[C@H](CCC(=O)O)NC(=O)[C@H](Cc1ccc(O)cc1)NC(=O)[C@H](CCC(=O)O)NC(=O)[C@H](CC(C)C)NC(=O)[C@H](CC(=O)O)NC(=O)[C@H](CC(C)C)NC(=O)[C@H](CC(C)C)NC(=O)[C@@H](NC(=O)[C@@H](NC(=O)[C@H](CC(N)=O)NC(=O)[C@@H](NC(=O)[C@H](CCC(N)=O)NC(=O)[C@@H](NC(=O)[C@H](CC(C)C)NC(=O)[C@@H](N)CO)[C@@H](C)O)[C@@H](C)CC)[C@@H](C)O)[C@@H](C)O)C(C)C)C(C)C)C(=O)N[C@@H](CC(=O)O)C(=O)N[C@@H](CC(C)C)C(=O)N[C@@H](CCCCN)C(=O)N[C@@H](CCC(=O)O)C(=O)N[C@@H](CC(C)C)C(=O)O	81
CC[C@H](C)[C@H](NC(=O)[C@H](Cc1ccc(O)cc1)NC(=O)[C@H](CO)NC(=O)[C@H](CCC(=O)O)NC(=O)[C@H](CC(N)=O)NC(=O)[C@H](CC(C)C)NC(=O)[C@H](C)NC(=O)[C@H](CCCCN)NC(=O)[C@@H](NC(=O)[C@@H](NC(=O)[C@H](CCC(N)=O)NC(=O)[C@H](CCC(N)=O)NC(=O)[C@H](CC(C)C)NC(=O)[C@H](CO)NC(=O)[C@H](CCCCN)NC(=O)[C@H](CCSC)NC(=O)[C@H](CCC(=O)O)NC(=O)[C@H](Cc1ccc(O)cc1)NC(=O)[C@@H](NC(=O)[C@H](CC(C)C)NC(=O)[C@H](CC(=O)O)NC(=O)[C@H](CC(C)C)NC(=O)[C@H](CC(C)C)NC(=O)[C@@H](NC(=O)[C@@H](NC(=O)[C@H](CC(N)=O)NC(=O)[C@@H](NC(=O)[C@H](CCC(N)=O)NC(=O)[C@@H](NC(=O)[C@H](CC(C)C)NC(=O)[C@@H](N)CO)[C@@H](C)O)[C@@H](C)CC)[C@@H](C)O)[C@@H](C)O)[C@@H](C)O)C(C)C)C(C)C)C(=O)N[C@@H](CC(=O)O)C(=O)N[C@@H](CC(C)C)C(=O)N[C@@H](CCCCN)C(=O)N[C@@H](CCC(=O)O)C(=O)N[C@@H](CC(C)C)C(=O)O	55
CC[C@H](C)[C@H](NC(=O)[C@H](Cc1ccc(O)cc1)NC(=O)[C@H](CO)NC(=O)[C@H](CCC(=O)O)NC(=O)[C@H](CC(N)=O)NC(=O)[C@H](CC(C)C)NC(=O)[C@H](C)NC(=O)[C@H](CCCCN)NC(=O)[C@@H](NC(=O)[C@@H](NC(=O)[C@H](CCC(N)=O)NC(=O)[C@H](CCC(N)=O)NC(=O)[C@H](CC(C)C)NC(=O)[C@H](CO)NC(=O)[C@H](CC(C)C)NC(=O)[C@H](CCSC)NC(=O)[C@H](CCC(=O)O)NC(=O)[C@H](Cc1ccc(O)cc1)NC(=O)[C@@H](NC(=O)[C@H](CC(C)C)NC(=O)[C@H](CC(=O)O)NC(=O)[C@H](CC(C)C)NC(=O)[C@H](CC(C)C)NC(=O)[C@@H](NC(=O)[C@@H](NC(=O)[C@H](CC(N)=O)NC(=O)[C@@H](NC(=O)[C@H](CCC(N)=O)NC(=O)[C@@H](NC(=O)[C@H](CC(C)C)NC(=O)[C@@H](N)CO)[C@@H](C)O)[C@@H](C)CC)[C@@H](C)O)[C@@H](C)O)[C@@H](C)O)C(C)C)C(C)C)C(=O)N[C@@H](CC(=O)O)C(=O)N[C@@H](CC(C)C)C(=O)N[C@@H](CCCCN)C(=O)N[C@@H](CCC(=O)O)C(=O)N[C@@H](CC(C)C)C(=O)O	55
CC[C@H](C)[C@H](NC(=O)[C@H](Cc1ccc(O)cc1)NC(=O)[C@H](CO)NC(=O)[C@H](CCC(=O)O)NC(=O)[C@H](CC(N)=O)NC(=O)[C@H](CC(C)C)NC(=O)[C@H](CCCCN)NC(=O)[C@H](CCCCN)NC(=O)[C@@H](NC(=O)[C@@H](NC(=O)[C@H](CCC(=O)O)NC(=O)[C@H](CCC(=O)O)NC(=O)[C@H](CC(C)C)NC(=O)[C@H](CO)NC(=O)[C@H](CCCNC(=N)N)NC(=O)[C@H](CCSC)NC(=O)[C@H](CCC(=O)O)NC(=O)[C@H](Cc1ccc(O)cc1)NC(=O)[C@H](CCC(=O)O)NC(=O)[C@H](CC(C)C)NC(=O)[C@H](CC(=O)O)NC(=O)[C@H](CC(C)C)NC(=O)[C@H](CC(C)C)NC(=O)[C@@H](NC(=O)[C@@H](NC(=O)[C@H](CC(N)=O)NC(=O)[C@@H](NC(=O)[C@H](CCC(N)=O)NC(=O)[C@@H](NC(=O)[C@H](CC(C)C)NC(=O)[C@@H](N)CO)[C@@H](C)O)[C@@H](C)CC)[C@@H](C)O)[C@@H](C)O)C(C)C)C(C)C)C(=O)N[C@@H](CC(=O)O)C(=O)N[C@@H](CCC(=O)O)C(=O)N[C@@H](CCCCN)C(=O)N[C@@H](CCC(=O)O)C(=O)N[C@@H](CC(C)C)C(=O)O	48
